Human monoclonal antibodies against the spike receptor-binding domain (heavy:light variable regions). IC50 against pseudoviruses bearing the spike of naturally observed variants; lower = stronger; >10 µg/ml means not reached at the top dose. No active / inactive call. The stated detection limit is 0.0005 µg/ml; values near or below 0.001 µg/ml lie at the floor of the assay.
B1: BD55-878 (protein)
chain 1: QLQLQESGPGLVKPSETLSLTCTVSGGSISSRCSYWGWIRQPPGKGLEWIGSMYYSGATYYNPSLKSRVTISVDTSNNQFSLKLSSVTAADTALYYCAREEGHCSSWGGVYFDNWGQGTLVTVSS
chain 2: QSVLTQPPSVSGVPGQRVTISCTGSSSNIGAGYDVHWYQHPPGTAPKLLIYGNNNRPSGVPDRFSGSKSGASASLAITGLQAEDEADYYCQSYDTSLTARVFGGGTRLTVL
B2: BD55-887 (protein)
chain 1: QVQLVQSGAEMKKPGSSVKVSCKASGGTFSSYVISWVRQAPGQGLEWMGRIIPALGIPNYAQNFQGRVTITADKSTSTAYMELSSLRSEDTAVYYCARDRGMRDNWFDPWGQGTLVTVSS
chain 2: QSVLTQPPSVSGAPGQRVTISCTGSSSNIGAGYDVHWYQQLPGTAPKLLIYANNNRPSGVPDRFSGSKSDTSASLAITGLQAEDEADYYCQSYDSSLSGEVFGTGTKVTVL
B3: BD55-888 (protein)
chain 1: QVQLVESGGGVVQPGRSLRLSCAASGFTFSSYAMHWLRQAPGKGLEWVAVISYDGSYNYYADSVKDRFTISRDNSKNTLYLQMNSLRAEDTAVYYCAREGVVATICFDYWGQGTLVTVSS
chain 2: DIQMTQSPSSLSASVGDRVTITCRASQSISSYLNWYQLKPGKAPKLLIYAASSLQSGVPSRFSGSGSGTDFTLTISSLQPEDFATYYCQQSYTTFMYTFGQGTKLEIK
B4: BD55-892 (protein)
chain 1: QVQLVESGGGLVKPGGSLRLSCAASGFAFSDYYMSWVRQAPGKGLEWISYLSPSGNTKYYADSVKGRFSISRDNANNSVDLQMNSLRAEDTAMYYCVRDTTVEDIAAGRPRFVYWGQGTLVTVSS
chain 2: DIQMTQSPSSLSASVGDRVTITCQASQDINNYLNWYQQKPGKAPNLLIYDASNLETGVPSRFSGSGSGTYFSFTISSLQPEDIGTYYCQQYDNLPLTFGGGTKVEIK
B5: BD55-898 (protein)
chain 1: VQLQESGPGLVKPSQTLSLTCTVSGGSISNDEHFWNWIRQHPRKGLEWIGYIYHSGSTSYNPSLQSRVTLSIDTSKNQFSLRLRSVTAADTAVYYCARGTEYCSGRNCFGEGWFDPWGQGSLVTVSS
chain 2: SYELTQPPSVSVSPGQTANITCSGDKLGNRYASWYQQRPGRSPVVVIYEDNKRPSGIPERFSGSTSGNTATLTISGTQAMDEADYYCQAWDSDAVVFGGGTKLAVL
B6: BD55-903 (protein)
chain 1: EVQLVESGGGLVQPGGSLRLSCAASGLIVSSNYMSWVRQAPGKGLEWVSDIYSGGSTFYADSVKGRFTVSRNNSKNTLYLQMNSLRVEDTAVYYCARRYGDYHFDYWGQGTLVTVSS
chain 2: DIQMTQSPSTLSASVGDRVTITCRASQGISRWLAWYQQKPGKAPKLLIYETSSLESGVPSRFSGSGSGTEFTLTISSLQPDDFATYYCQQRDTFGQGTKLEIK

Assays:
Assay in all cases: pseudovirus neutralization IC50; higher = weaker neutralization
[1] = biological target: SARS-CoV-2 Omicron BA.1 spike pseudovirus
Procedure: (§1)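 Single-round VSV luciferase pseudovirus mixed with antibody dilutions for 1 h and put on Huh-7 cells for about a day; IC50 from the dose curve.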

[2] = biological target: SARS-CoV-2 Omicron BA.2 spike pseudovirus
Procedure: as §1

[3] = biological target: SARS-CoV-2 Omicron BA.2.75 spike pseudovirus
Procedure: as §1

[4] = biological target: SARS-CoV-2 Omicron BA.5 spike pseudovirus
Procedure: as §1

[5] = biological target: SARS-CoV-2 Omicron BQ.1.1 spike pseudovirus
Procedure: as §1

[6] = biological target: SARS-CoV-2 Omicron XBB spike pseudovirus
Procedure: as §1

[7] = biological target: SARS-CoV-2 early D614G spike pseudovirus
Procedure: as §1

| Binder | pseudovirus neutralization IC50 [1] | pseudovirus neutralization IC50 [2] | pseudovirus neutralization IC50 [3] | pseudovirus neutralization IC50 [4] | pseudovirus neutralization IC50 [5] | pseudovirus neutralization IC50 [6] | pseudovirus neutralization IC50 [7] |
| --- | --- | --- | --- | --- | --- | --- | --- |
| B1 | > 10 µg/mL | > 10 µg/mL | > 10 µg/mL | > 10 µg/mL | > 10 µg/mL | > 10 µg/mL | > 10 µg/mL |
| B2 | 0.447 µg/mL | 0.411 µg/mL | 0.21 µg/mL | > 10 µg/mL | > 10 µg/mL | > 10 µg/mL | 0.22 µg/mL |
| B3 | > 10 µg/mL | > 10 µg/mL | > 10 µg/mL | > 10 µg/mL | > 10 µg/mL | > 10 µg/mL | > 10 µg/mL |
| B4 | 0.319 µg/mL | 0.489 µg/mL | 0.412 µg/mL | > 10 µg/mL | > 10 µg/mL | > 10 µg/mL | 0.0437 µg/mL |
| B5 | > 10 µg/mL | > 10 µg/mL | > 10 µg/mL | > 10 µg/mL | > 10 µg/mL | > 10 µg/mL | > 10 µg/mL |
| B6 | > 10 µg/mL | > 10 µg/mL | > 10 µg/mL | 0.636 µg/mL | > 10 µg/mL | > 10 µg/mL | 0.0137 µg/mL |

Reference: the supplement of paper PMC9931576
